Primary screen of a compound library

Data taken from ChEMBL document CHEMBL3988442, “University of Dundee, Small-Polar-MMV Screening Library” (2021).

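Whole-cell growth test on Mycobacterium tuberculosis, read after 3 days in glucose-containing 7H9 medium; the read-out is not stated. Concentration: 500 µM. Direction is inferred from retests: higher values go with more growth inhibition. Of about 18,000 compounds tested this way, about 1,400 (7.9%) reached 50% or more in at least one test.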

Each number is a percent effect as filed. How 0% and 100% were set is not recorded. Most values in the screen are low, and negative values occur. Many other results are left out here, so strong results are more common than in the screen.

compound | Percent Effect
NC[C@@H]1CC(=O)N(C2CC2)[C@H]1c1cccnc1 | 7.723
CC(Sc1ccccn1)C(=O)NCCn1ccnc1 (centres unmarked) | 9.407
CNc1nc(NCC(C)CO)ncc1Br (centres unmarked) | 2.915
Cn1cncc1CCN | 2.588
CN1N=C(C(=O)NC2CCCc3occc32)CCC1=O (centres unmarked) | 23.97
CCC(C)(C)NCC(=O)Nc1ccc2c(c1)OCCO2 | 23.63
Cc1cc2cccc(C(=O)NCCOCCO)c2o1 | -6.827
NCc1ccc(OC2CCCC2)nc1 | 3.912
COc1cccc(NC(=O)Cn2cncn2)c1 | -13.43
CC(=O)c1cccc(OCCN(C)C)c1 | 8.566
Cn1cncc1CCNC(=O)c1ccc(C#N)cc1 | 6.735
CC1CCCCN1S(=O)(=O)c1ccc(CCN)cc1 (centres unmarked) | 55.9
O=C(Cn1cccnc1=O)N1[C@H]2CCNC[C@@H]1CC2 | 27.57
CN(Cc1c(F)cccc1Cl)S(=O)(=O)N1CCOCC1 | 66.06
CN(C)c1noc(CNS(=O)(=O)c2ccccc2)n1 | 35.33
N[C@H]1CCN(c2ccccc2)C1 | 4.216
COc1cc(OC)cc(-c2[nH][nH]c(=O)c2CCN)c1 | 43.47
Cc1ccc(F)c(C(=O)NCCc2n[nH]c(N)n2)c1Cl | 11.1
CCn1cc(N)cn1 | 22.46
CCCC(O)(CCC)CC(=O)N1CCNC(=O)C1 | -1.117
NC(CC(=O)N1CCSCC1)c1ccccc1 (centres unmarked) | 12.42
CN1CCN(C(=O)Cn2ccc(N)n2)CC1 | -5.576
CCNC(=O)Cn1c(=O)n(CC)c2ccccc21 | 2.534
NC(=O)N1CCCN(Cc2cc(Cl)cs2)CC1 | 24.66
CC(C)N(C(=O)CSc1nnc[nH]1)C(C)C | -0.857
c1ccc(CN2CCN(CCC3OCCO3)CC2)nc1 | -0.7494
OCC(O)CSCc1ccc(F)cc1 (centres unmarked) | 25.72
COc1cc(CCN)ccc1F | 36.81
COC(=O)Cn1c(=O)oc2ccccc21 | 11.73
COc1cc(Cl)ccc1C(=O)N[C@@H]1CCNC[C@H]1O | 24.47
CN(Cc1ccsc1)C(=O)CNC(=O)c1ccc(Br)o1 | 81.2
O=C1CNCN1Cc1ccccc1 | 2.637
CC(C)c1cccc(NC(=O)CN2CCC(O)CC2)c1 | 66.47
CCOCCC(=O)N1C[C@H](C(C)C)[C@@H](N)C1 | 7.648
Cc1ncncc1C(=O)NCCC1CCCN1C (centres unmarked) | -3.022
CC(C)NC(=O)Cc1ccsc1 | 5.763
O=C(NC1CCNCC1)c1ccc(F)cc1 | 4.11
CCC(C)c1cc(C(=O)NC(C)(CO)CO)on1 (centres unmarked) | -2.682
c1cn(CC2CCNCC2)nn1 | 15.23
OCC1CCN(Cc2cc(Cl)c3c(c2)OCCO3)CC1 | 32.16
Cn1ccnc1CSCCN1CCOCC1 | 4.44
COc1cc(CNC(=O)Nc2ccnc(C)c2)ccn1 | 55.37
C1CNC(CN2CCOCC2)C1 (centres unmarked) | -9.413
CC(CO)(CO)NCc1cnn(-c2ccc(Br)cc2)c1 | 62.68
CC(=O)Nc1ccc(C(=O)OC2CCCCC2=O)s1 (centres unmarked) | 40.34
CN(CCC(N)=O)Cc1ccc(Cl)s1 | 34.66
COc1ccccc1OCC(C)N (centres unmarked) | 6.391

Repeated from the top, 4 entries:

compound	Percent Effect
NC[C@@H]1CC(=O)N(C2CC2)[C@H]1c1cccnc1	7.723
CC(Sc1ccccn1)C(=O)NCCn1ccnc1 (centres unmarked)	9.407
CNc1nc(NCC(C)CO)ncc1Br (centres unmarked)	2.915
Cn1cncc1CCN	2.588